Compound potency records, mixed from different reports. Data source: NIAID ChemDB in PubChem.

Common to all: tests in culture; organism: Hepatitis B virus; endpoint: EC50

Rows are shuffled and stem from different studies.

SMILES,read by,strain or isolate,cell line,conditions,value
CNc1n[nH]c2cc(-n3c(=O)c4c(n5ncc(Cc6ccccc6)c35)CN(C(=O)c3ccc(Br)c(C(F)(F)F)c3)CC4)ccc12,luminescence,,HepG2.117,,≤0.05 µM
C[C@H](NC(=O)C(=O)N1CC[C@]2(COc3c(cn(C)c3C(=O)Nc3ccc(F)c(Cl)c3)S(=O)(=O)N2)C1)C(F)(F)F,PCR,Genotype D,HepAD38,,<0.5 µM
COC(=O)C1=C(CN2CC(F)(F)[C@@H]3[C@H]2CON3C[C@@H](OC)C(C)(C)C(=O)O)NC(c2nccs2)=N[C@H]1c1ccc(F)c(F)c1C,PCR,,HepG2.2.15,,0.016 µM
C[C@H](NC(=O)C(=O)N1CC2(COc3c(cn(C)c3C(=O)Nc3ccc(F)c(C(F)F)c3)S(=O)(=O)N2)C1)C(F)(F)F,PCR,Genotype D,HepAD38,,<0.5 µM
CC(C)[C@@H](N)C(=O)OCN(C)C(=O)c1ccc(-n2c(=O)c3c(n4ncc(CC5CC5)c24)CN(C(=O)c2ccc(Br)c(C(F)(F)F)c2)C(C)C3)cc1,luminescence,,HepG2.117,,0.5–5 µM
CCOC(=O)C1=C(CN2CC(F)(F)[C@@H]3[C@H]2CON3CC[C@@](C)(OC)C(=O)O)NC(c2nccs2)=N[C@H]1c1cccc(F)c1C,PCR,,HepG2.2.15,,0.099 µM
CC1(C)C(=O)Nc2ccc(-n3c(C(=O)NCc4ccccc4)c4n(c3=O)CCN(C(=O)c3ccc(Br)c(Cl)c3)C4)cc21,PCR,,HepG2.117,,0.5–5 µM
CCOC(=O)C1=C(CN2CC(F)(F)[C@@H]3[C@H]2CON3CCC(O)C(C)(C)C(=O)O)NC(c2nccs2)=N[C@H]1c1cccc(F)c1C,PCR,,HepG2.2.15,,0.024 µM
CCNC(=O)C(=O)N1CC(NS(=O)(=O)c2cn(C)c(C(=O)Nc3cc(F)c(F)c(F)c3)c2F)C1,PCR,,HepAD38 cells,,<0.1 µM
O=C(NCc1ccccc1)c1c2n(c(=O)n1-c1ccc(OCCO)cc1)CCN(C(=O)c1ccc(Br)c(Cl)c1)C2,PCR,,HepG2.117,,0.5–5 µM
COc1ccc(-n2c(=O)c3c(n4ncc(NCc5ccccc5)c24)CN(C(=O)c2ccc(Cl)c(Cl)c2)CC3)cc1,PCR,,HepG2.117,3 d,<0.1 µM
CCNC(=O)C(=O)N1CCC(NS(=O)(=O)c2cn(C)c(C(=O)Nc3cccc(Cl)c3)c2F)CC1,PCR,,HepAD38 cells,,<0.1 µM
C[C@@H](NC(=O)C(=O)N1CCC2(COc3c(c(Cl)n(C)c3C(=O)Nc3ccc(F)c(F)c3)S(=O)(=O)N2)C1)C(F)(F)F,PCR,Genotype D,HepAD38,,<0.5 µM
C[C@H]1Cc2c(n3ncc(Cc4ccccc4)c3n(-c3ccc4c(c3)nnn4C)c2=O)CN1C(=O)c1ccc(Br)c(C(F)(F)F)c1,luminescence,,HepG2.117,,≤0.05 µM
C[C@H](c1cnc([C@]2(F)CN(C(=O)c3ccc(Br)c(Cl)c3)CCS2(=O)=O)s1)c1ccccc1F,PCR,,HepG2.117,,0.5–5 µM
Cc1nnnn1-c1ccc(-n2c(=O)c3c(n4ncc(Cc5ccccc5)c24)CN(C(=O)c2ccc(Br)c(C(F)(F)F)c2)[C@H](C)C3)cc1,luminescence,,HepG2.117,,≤0.05 µM
C#CCNC(=O)C(=O)N1CC[C@@H](NS(=O)(=O)c2cn(C)c(C(=O)Nc3ccc(F)c(F)c3)c2F)C1,PCR,,HepAD38 cells,,<0.1 µM
CNC(=O)c1ccc(-n2c(=O)c3c(n4ncc(Nc5ccc(F)cc5)c24)CN(C(=O)c2ccc(Br)c(C#N)c2)CC3)cc1,PCR,,HepG2.117,3 d,0.1–0.5 µM
O=C(c1ccc(Cl)cc1Cl)N1CCS(=O)(=O)[C@@H](c2cccs2)C1,PCR,,HepG2.2.15,,0.5–5 µM
C[C@H](NC(=O)C(=O)N1CCC2(CC1)COc1c(cn(C)c1C(=O)Nc1ccc(F)c(C(F)F)c1)S(=O)(=O)N2)C(F)(F)F,PCR,Genotype D,HepAD38,,<0.5 µM
COC(=O)C1=C(CN2CC(F)(F)[C@@H]3[C@H]2CON3C[C@@H](F)C(C)(C)C(=O)O)NC(c2nccs2)=N[C@H]1c1ccc(F)cc1Cl,PCR,,HepG2.2.15,,0.019 µM
C[C@@H]1Cn2c(c(C(=O)NC(C)(C)c3ccccc3)n(-c3ccc(-n4cccn4)cc3)c2=O)CN1C(=O)c1ccc(Br)c(Cl)c1,PCR,,HepG2.2.15,,0.5–5 µM
CCNC(=O)c1ccc(-n2c(=O)c3c(n4ncc(Cc5ccccc5)c24)CN(C(=O)c2ccc(Br)c(C#N)c2)CC3)cc1,PCR,,HepG2.117,3 d,0.5–5 µM
CCOC(=O)C1=C(CN2CC(F)(F)[C@@H]3[C@H]2CON3C[C@@H](F)CCC(C)(C)C(=O)O)NC(c2nccs2)=N[C@H]1c1cccc(F)c1C,PCR,,HepG2.2.15,,0.008 µM
COP(=O)(OC)OCN(C)C(=O)c1ccc(-n2c(=O)c3c(n4ncc(CC5CC5)c24)CN(C(=O)c2ccc(Br)c(C(F)(F)F)c2)[C@@H](C)C3)cc1,luminescence,,HepG2.117,,>5 µM
CCOC(=O)C1=C(CN2CC(F)(F)[C@@H]3[C@H]2CON3C[C@@H](O)[C@H](CC)C(=O)O)NC(c2nccs2)=N[C@H]1c1cccc(F)c1C,PCR,,HepG2.2.15,,0.086 µM
C[C@@H]1Cc2c(n3ncc(CC4CCC4)c3n(-c3ccc(-c4nncn4C)cc3)c2=O)CN1C(=O)c1ccc(Br)c(C(F)(F)F)c1,luminescence,,HepG2.117,,≤0.05 µM
CCOC(=O)C1=C(CN2CC(F)(F)[C@@H]3[C@H]2CON3C[C@H](O)C(C)(C)C(=O)O)NC(c2nccs2)=N[C@H]1c1cccc(F)c1F,PCR,,HepG2.2.15,,0.179 µM
Cc1cnn(-c2ccc(-n3c(=O)c4c(n5ncc(CC(C)C)c35)CN(C(=O)c3ccc(Br)c(C(F)(F)F)c3)[C@@H](C)C4)cc2)n1,luminescence,,HepG2.117,,0.5–5 µM
C[C@@H](NC(=O)C(=O)N1CC[C@]2(COc3c(c(Cl)n(C)c3C(=O)Nc3ccc(F)c(Cl)c3)S(=O)(=O)N2)C1)C(F)(F)F,PCR,Genotype D,HepAD38,,<0.5 µM
COc1cc(Cl)c(-n2c(C(=O)NCc3ccccc3)c3n(c2=O)CCN(C(=O)c2ccc(Cl)c(Cl)c2)C3)c(Cl)c1,PCR,,HepG2.117,,>5 µM
O=C(NC1CC1)C(=O)N1CCC(NS(=O)(=O)c2c(F)c(C(=O)Nc3cc(F)c(F)c(F)c3)n3c2CCC3)CC1,PCR,,HepAD38 cells,,<0.1 µM
CCOC(=O)C1=C(CN2CC(F)(F)[C@@H]3[C@H]2CON3C[C@H](OC)C(C)(C)C(=O)O)NC(c2nc(C)cs2)=N[C@H]1c1cccc(F)c1C,PCR,,HepG2.2.15,,0.012 µM
COc1ccc(-n2c(C(=O)N[C@H]3CCc4cc(OC)ccc43)c3n(c2=O)CCN(C(=O)c2ccc(Br)c(Cl)c2)C3)cc1,PCR,,HepG2.117,,0.1–0.5 µM
C[C@@]1(c2ncc(Cc3ccccc3)s2)CN(C(=O)c2ccc(Br)c(Cl)c2)CCS1(=O)=O,PCR,,HepG2.117,,0.5–5 µM
NC(=O)c1ccc(-n2c(=O)c3c(n4ncc(Cc5ccccc5)c24)CN(C(=O)c2ccc(Br)c(Cl)c2)CC3)cc1,PCR,,HepG2.117,3 d,0.5–5 µM
O=C(NCc1ccccc1-c1cccnn1)c1c2n(c(=O)n1-c1ccc(OC3CC3)cc1)CCN(C(=O)c1ccc(Br)c(Cl)c1)C2,PCR,,HepG2.117,,<0.1 µM
CNc1nnc2cc(-n3c(=O)c4c(n5ncc(Cc6ccccc6)c35)CN(C(=O)c3ccc(Br)c(C(F)(F)F)c3)CC4)ccn12,luminescence,,HepG2.117,,≤0.05 µM
C[C@H]1Cn2c(c3n(c2=O)C[C@H](F)CN(Cc2ccccc2)C3=O)CN1C(=O)c1ccc(Br)c(Cl)c1,PCR,,HepG2.117,,0.1–0.5 µM
O=C(c1ccc(Br)c(Cl)c1)N1CCS(=O)(=O)C(c2ncc(Cc3ccccc3)s2)C1,PCR,,HepG2.117,,0.1–0.5 µM
O=C(NCc1ccccc1-c1nccnn1)c1c2n(c(=O)n1-c1ccc(OC3CC3)cc1)CCN(C(=O)c1ccc(Br)c(Cl)c1)C2,PCR,,HepG2.2.15,,0.1–0.5 µM
CNC(=O)c1cc(-n2c(=O)c3c(n4ncc(CC(C)C)c24)CN(C(=O)c2ccc(Br)c(C(F)(F)F)c2)[C@H](C)C3)nn1C,luminescence,,HepG2.117,,≤0.05 µM

For reference, 5 entries again:

SMILES,read by,strain or isolate,cell line,conditions,value
CCOC(=O)C1=C(CN2CC(F)(F)[C@@H]3[C@H]2CON3C[C@H](O)C(C)(C)C(=O)O)NC(c2nccs2)=N[C@H]1c1cccc(F)c1F,PCR,,HepG2.2.15,,0.179 µM
COC(=O)C1=C(CN2CC(F)(F)[C@@H]3[C@H]2CON3C[C@@H](F)C(C)(C)C(=O)O)NC(c2nccs2)=N[C@H]1c1ccc(F)cc1Cl,PCR,,HepG2.2.15,,0.019 µM
C[C@H]1Cn2c(c3n(c2=O)C[C@H](F)CN(Cc2ccccc2)C3=O)CN1C(=O)c1ccc(Br)c(Cl)c1,PCR,,HepG2.117,,0.1–0.5 µM
C[C@@H]1Cn2c(c(C(=O)NC(C)(C)c3ccccc3)n(-c3ccc(-n4cccn4)cc3)c2=O)CN1C(=O)c1ccc(Br)c(Cl)c1,PCR,,HepG2.2.15,,0.5–5 µM
O=C(NCc1ccccc1-c1cccnn1)c1c2n(c(=O)n1-c1ccc(OC3CC3)cc1)CCN(C(=O)c1ccc(Br)c(Cl)c1)C2,PCR,,HepG2.117,,<0.1 µM

ECn is the concentration giving n% inhibition of infection, replication or growth. Blank or dashed fields: not listed here. a–b is a range or a potency band.